Tested on: HIV-1 (IIIB strain)
Assay: Anti-HIV-1 assay: inhibition of virus-induced cytopathicity in acutely infected MT-4 cells (MTT)
Assay type: cell-based
Conditions: for SI: selectivity index, CC50/EC50 ratio: CC50 (mock-infected cells) / EC50 (HIV-1 in MT-4 cells)
Method: Compounds. Compounds were solubilized in DMSO at 200 mM and then diluted into culture medium.
Cells and viruses. MT-4, C8166, H9/IIIB and CEM cells were grown at 37° C. in a 5% CO2 atmosphere in RPMI 1640 medium, supplemented with 10% fetal calf serum (FCS), 100 UI/mL penicillin and 100 μg/mL streptomycin. Cell cultures were checked periodically for the absence of mycoplasma contamination with a MycoTect Kit (Gibco). Human immunodeficiency virus type-1 (HIV-1, IIIB strain) was obtained from supernatants of persistently infected H9/IIIB cells.
Anti-HIV assays. Activity of the compounds against HIV-1 and HIV-2 multiplication in acutely infected cells was based on the inhibition of virus-induced cytopathicity in MT-4 and C8166 cells, respectively. Briefly, 50 μL of culture medium containing 1×10^4 cells were added to each well of flat-bottom microtiter trays containing 50 μl of culture medium with or without various concentrations of the test compounds. Then 20 μL of an HIV suspension containing 100 CCID50 were added. After a 4-day incubation at 37° C., the number of viable cells was determined by the 3-(4,5-dimethylthiazol-[…])-2,5-diphenyltetrazolium bromide (MTT) method. Cytotoxicity of the compounds was evaluated in parallel with their antiviral activity. It was based on the viability of mock-infected cells, as monitored by the MTT method.

Row | Compound | SI (selectivity index, CC50/EC50 ratio) | SI: selectivity index, CC50/EC50 ratio
1 | CC1CCC(C)C(Oc2nc(Cc3ccccc3)cc(=O)[nH]2)C1 (mixture of isomers) [MC 507] | 40 | –
2 | CC1CCC(Oc2nc(Cc3ccccc3)cc(=O)[nH]2)CC1C (mixture of isomers) [MC 508] | 9 | –
3 | CC1CC(C)CC(Oc2nc(Cc3ccccc3)cc(=O)[nH]2)C1 (mixture of isomers) [MC 512] | >6.7 | –
4 | Cc1c(Cc2ccccc2)nc(OC2CC(C)CCC2C)[nH]c1=O (mixture of isomers) [MC 531] | 39 | –
5 | CCC(C)Nc1nc(C(C)c2c(F)cccc2F)cc(=O)[nH]1 (mixture of isomers) [MC 1192] | – | 2,150
6 | CCC(C)Sc1nc(Cc2ccccc2C)cc(=O)[nH]1 (racemic) [MC 806] | >111 | –
7 | CCC(C)Sc1nc(Cc2ccc(C)cc2)cc(=O)[nH]1 (racemic) [MC 809] | 333.3 | –
8 | CCC(C)Sc1nc(Cc2ccccc2[N+](=O)[O-])cc(=O)[nH]1 (racemic) [MC 817] | >800 | –
9 | CCC(C)Sc1nc(Cc2ccc(Cl)cc2)cc(=O)[nH]1 (racemic) [MC 859] | 24 | –
10 | CCC(C)Sc1nc(Cc2ccc([N+](=O)[O-])cc2)cc(=O)[nH]1 (racemic) [MC 863] | 101 | –
11 | CCC(C)Sc1nc(Cc2ccccc2C(F)(F)F)cc(=O)[nH]1 (racemic) [MC 868] | 6.2 | –
12 | CCC(C)Sc1nc(Cc2cccc(F)c2)cc(=O)[nH]1 (racemic) [MC 884] | >286 | –
13 | CCC(C)Sc1nc(Cc2ccc(F)cc2)cc(=O)[nH]1 (racemic) [MC 889] | 23 | –
14 | CC(C)Sc1nc(C(C)c2ccccc2)cc(=O)[nH]1 (racemic) [MC 890] | >222 | –
15 | CC(c1ccccc1)c1cc(=O)[nH]c(SC2CCCC2)n1 (racemic) [MC 892] | 333 | –
16 | CCC(C)Sc1nc(Cc2cccc([N+](=O)[O-])c2)cc(=O)[nH]1 (racemic) [MC 897] | 392 | –
17 | CCC(c1ccccc1)c1cc(=O)[nH]c(SC(C)C)n1 (racemic) [MC 899] | 250 | –
18 | CCC(c1ccccc1)c1cc(=O)[nH]c(SC2CCCC2)n1 (racemic) [MC 900] | >200 | –
19 | CCC(c1ccccc1)c1cc(=O)[nH]c(SC2CCCCC2)n1 (racemic) [MC 903] | >154 | –
20 | CCC(C)Sc1nc(Cc2ccc(C(F)(F)F)cc2)cc(=O)[nH]1 (racemic) [MC 959] | 8 | –
21 | CCC(C)Oc1nc(Cc2c(F)cccc2F)cc(=O)[nH]1 (racemic) [MC 1114] | 52 | –
22 | Cc1c(C(C)c2c(F)cccc2F)nc(SC(C)C)[nH]c1=O (racemic) [MC 1137] | – | 28,571
23 | Cc1c(C(C)c2c(F)cccc2F)nc(SCC(C)C)[nH]c1=O (racemic) [MC 1153] | – | >20,000
24 | CNc1nc(C(C)c2c(F)cccc2F)c(C)c(=O)[nH]1 (racemic) [MC 1170] | – | >6,666
25 | Cc1c(C(C)c2c(F)cccc2F)nc(SC2CCCCC2)[nH]c1=O (racemic) [MC 1174] | – | >11,111

Row | Compound | SI (selectivity index, CC50/EC50 ratio) | SI: selectivity index, CC50/EC50 ratio
26 | CCCCSc1nc(C(C)c2c(F)cccc2F)c(C)c(=O)[nH]1 (racemic) [MC 1175] | – | 14,000
27 | CNc1nc(C(C)c2c(F)cccc2F)cc(=O)[nH]1 (racemic) [MC 1178] | 964 | –
28 | CC(c1cc(=O)[nH]c(NC2CCCCC2)n1)c1c(F)cccc1F (racemic) [MC 1180] | – | 2,545
29 | Cc1c(C(C)c2c(F)cccc2F)nc(NC2CCCCC2)[nH]c1=O (racemic) [MC 1181] | – | 2,231
30 | CCCCNc1nc(C(C)c2c(F)cccc2F)c(C)c(=O)[nH]1 (racemic) [MC 1187] | – | 8,300
31 | CCCCNc1nc(C(C)c2c(F)cccc2F)cc(=O)[nH]1 (racemic) [MC 1189] | – | 1,730
32 | CC(C)Nc1nc(C(C)c2c(F)cccc2F)cc(=O)[nH]1 (racemic) [MC 1191] | – | 3,830
33 | Cc1c(C(C)c2c(F)cccc2F)nc(SC2CCCC2)[nH]c1=O (single isomer, unassigned) [MC 1047+] | – | >100,000
34 | Cc1c(C(C)c2c(F)cccc2F)nc(SC2CCCC2)[nH]c1=O (single isomer, unassigned) [MC 1047−] | – | >286
35 | CCc1c(Cc2ccccc2)nc(SC(C)CC)[nH]c1=O (stereo not drawn) [MC 798] | >200 | –
36 | CCC(C)Sc1nc(Cc2c(Cl)cccc2Cl)cc(=O)[nH]1 (stereo not drawn) [MC 815] | >1,428 | –
37 | Cc1ccccc1Cc1cc(=O)[nH]c(SC2CCCC2)n1 [MC 842] | >59 | –
38 | O=c1cc(Cc2ccccc2)nc(SCOCc2ccccc2)[nH]1 [MC 843] | >4 | –
39 | CCC(C)Sc1nc(Cc2ccccc2C)c(C)c(=O)[nH]1 (stereo not drawn) [MC 844] | >118 | –
40 | CCC(C)Sc1nc(Cc2ccc(C)cc2)c(C)c(=O)[nH]1 (stereo not drawn) [MC 845] | 32 | –
41 | CCC(C)Sc1nc(Cc2c(F)cccc2F)cc(=O)[nH]1 (stereo not drawn) [MC 848] | 5,000 | –
42 | CCC(C)Sc1nc(Cc2c(F)cccc2F)c(C)c(=O)[nH]1 (stereo not drawn) [MC 849] | 8,000 | –
43 | CCC(C)Sc1nc(Cc2c(Cl)cccc2Cl)c(C)c(=O)[nH]1 (stereo not drawn) [MC 850] | >4,000 | –
44 | CC(C)Sc1nc(Cc2c(F)cccc2F)cc(=O)[nH]1 [MC 860] | >1,000 | –
45 | CC(C)CSc1nc(Cc2c(F)cccc2F)cc(=O)[nH]1 [MC 866] | 1,300 | –
46 | O=c1cc(Cc2c(F)cccc2F)nc(SC2CCCCC2)[nH]1 [MC 870] | 2,500 | –
47 | CSc1nc(Cc2c(F)cccc2F)cc(=O)[nH]1 [MC 871] | 247 | –
48 | CCCCSc1nc(Cc2c(F)cccc2F)cc(=O)[nH]1 [MC 872] | 900 | –
49 | CSc1nc(Cc2c(Cl)cccc2Cl)cc(=O)[nH]1 [MC 877] | >62 | –
50 | CC(C)Sc1nc(Cc2c(Cl)cccc2Cl)cc(=O)[nH]1 [MC 878] | >105 | –

Row | Compound | SI (selectivity index, CC50/EC50 ratio) | SI: selectivity index, CC50/EC50 ratio
51 | CC(C)CSc1nc(Cc2c(Cl)cccc2Cl)cc(=O)[nH]1 [MC 885] | >444 | –
52 | CCCCSc1nc(Cc2c(Cl)cccc2Cl)cc(=O)[nH]1 [MC 886] | >454 | –
53 | O=c1cc(Cc2c(Cl)cccc2Cl)nc(SC2CCCC2)[nH]1 [MC 888] | >500 | –
54 | O=c1cc(Cc2c(Cl)cccc2Cl)nc(SC2CCCCC2)[nH]1 [MC 891] | >333 | –
55 | CCCCSc1nc(Cc2c(F)cccc2F)c(C)c(=O)[nH]1 [MC 905] | >2,500 | –
56 | CCC(C)Sc1nc(Cc2ccccc2Cl)c(C)c(=O)[nH]1 (stereo not drawn) [MC 909] | >741 | –
57 | CCC(C)Sc1nc(Cc2cccc(Cl)c2)c(C)c(=O)[nH]1 (stereo not drawn) [MC 910] | >208 | –
58 | CCC(C)Sc1nc(Cc2ccc(Cl)cc2)c(C)c(=O)[nH]1 (stereo not drawn) [MC 911] | 20 | –
59 | CCC(C)Sc1nc(Cc2ccccc2F)c(C)c(=O)[nH]1 (stereo not drawn) [MC 913] | 341 | –
60 | Cc1c(Cc2c(Cl)cccc2Cl)nc(SC(C)C)[nH]c1=O [MC 914] | >154 | –
61 | Cc1c(Cc2c(Cl)cccc2Cl)nc(SC2CCCC2)[nH]c1=O [MC 915] | >111 | –
62 | Cc1c(Cc2c(Cl)cccc2Cl)nc(SCC(C)C)[nH]c1=O [MC 916] | >166 | –
63 | Cc1c(Cc2c(Cl)cccc2Cl)nc(SC2CCCCC2)[nH]c1=O [MC 917] | >9 | –
64 | CCCCSc1nc(Cc2c(Cl)cccc2Cl)c(C)c(=O)[nH]1 [MC 920] | >171 | –
65 | Cc1c(Cc2c(F)cccc2F)nc(SCC(C)C)[nH]c1=O [MC 921] | 640 | –
66 | Cc1c(Cc2c(F)cccc2F)nc(SC2CCCC2)[nH]c1=O [MC 922] | >2,500 | –
67 | Cc1c(Cc2c(F)cccc2F)nc(SC2CCCCC2)[nH]c1=O [MC 923] | >2,222 | –
68 | CCC(C)Sc1nc(Cc2ccc([N+](=O)[O-])cc2)c(C)c(=O)[nH]1 (stereo not drawn) [MC 924] | >100 | –
69 | CCC(C)Nc1nc(Cc2c(F)cccc2F)cc(=O)[nH]1 (stereo not drawn) [MC 945] | >1,540 | –
70 | CCC(C)Sc1nc(Cc2ccccc2OC)cc(=O)[nH]1 (stereo not drawn) [MC 952] | >208 | –
71 | CCC(C)Sc1nc(Cc2cccc(OC)c2)cc(=O)[nH]1 (stereo not drawn) [MC 957] | >166 | –
72 | CCC(C)Sc1nc(Cc2ccc(OC)cc2)cc(=O)[nH]1 (stereo not drawn) [MC 964] | 10.5 | –
73 | CCC(c1cc(=O)[nH]c(SC(C)C)n1)c1cccc2ccccc12 (stereo not drawn) [MC 969] | 33.3 | –
74 | CC(C)Sc1nc(C(C)c2cccc3ccccc23)cc(=O)[nH]1 (stereo not drawn) [MC 971] | 108 | –
75 | CC(c1cc(=O)[nH]c(SC2CCCC2)n1)c1cccc2ccccc12 (stereo not drawn) [MC 972] | 186 | –
